Assay results published in article PMC2596486, “Heterosubtypic Neutralizing Monoclonal Antibodies Cross-Protective against H5N1 and H1N1 Recovered from Human IgM^+ Memory B Cells” (2008).

Target: surface expressed H5 rHA, wild type, on PER.C6 cells (UniProt Q6DQ34)

Substance: CR6261 human IgG1 F54A
- response (arbitrary units): 0.22

Substance: CR6261 human IgG1 F54L
- response (arbitrary units): 0.36
